Results deposited as PubChem BioAssay AID1224833 (University of Georgia, 2016)

Screen: 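Human genes whose knock-down alters rotavirus replication in monkey cells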 (primary screen)
System: monkey MA104 kidney cells
Reagent: siRNA pool against human genes, 50 nM
Duration: 48 h knock-down before infection; read 24 h after infection
Treatment: infection with rotavirus strain RV3 two days after transfection; infectious dose for this stage not given
Read-out: 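z-score of rotavirus antigen signal per well, from a fluorescent immunoassay, relative to non-targeting control wells on the same plate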
Reading the numbers: z-score vs non-targeting control: higher = more rotavirus replication than with non-targeting control
Active means: In these data the active calls have z-score vs non-targeting control at about -1 or lower, or at about 1 or higher
Meaning of the calls: active = z-score beyond 1 either way; inactive = z-score within 1 of zero
Shown is one part, drawn at random, of about 12,000 deposited reagents. Over the whole deposit, about 5,600 (46%) were called active. 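Active calls cover z-scores past 1 in both directions, so they include lowered as well as raised rotavirus replication.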

no.	gene knocked down	z-score vs non-targeting control	Call
1	ZSWIM1 (zinc finger SWIM-type containing 1)	0.493	inactive
2	SHH (sonic hedgehog signaling molecule)	0.79	inactive
3	INHBA (inhibin subunit beta A)	0.862	inactive
4	PLA2G2E (phospholipase A2 group IIE)	1.06	active
5	FAM131B (family with sequence similarity 131 member B)	0.788	inactive
6	CRTAM (cytotoxic and regulatory T cell molecule)	-0.384	inactive
7	ADGRF3 (adhesion G protein-coupled receptor F3)	-0.716	inactive
8	LRRFIP1 (LRR binding FLII interacting protein 1)	-0.201	inactive
9	AGMAT (agmatinase (putative))	1.54	active
10	COX4I1 (cytochrome c oxidase subunit 4I1)	1.5	active
11	IAPP (islet amyloid polypeptide)	-0.51	inactive
12	CTNND2 (catenin delta 2)	-0.707	inactive
13	SPRED3 (sprouty related EVH1 domain containing 3)	-1.3	active
14	RASAL2 (RAS protein activator like 2)	0.619	inactive
15	GTSF1L (gametocyte specific factor 1 like)	-1.69	active
16	LOXL3 (lysyl oxidase like 3)	1.28	active
17	TFDP1 (transcription factor Dp-1)	-1.9	active
18	POLD3 (DNA polymerase delta 3, accessory subunit)	-1.46	active
19	ZNF443 (zinc finger protein 443)	-0.795	inactive
20	GLIS3 (GLIS family zinc finger 3)	-1.93	active
21	CKAP2 (cytoskeleton associated protein 2)	0.565	inactive
22	NSG1 (neuronal vesicle trafficking associated 1)	0.315	inactive
23	COL11A1 (collagen type XI alpha 1 chain)	-0.264	inactive
24	ERVW-1 (endogenous retrovirus group W member 1, envelope)	-1.78	active
25	TNS1 (tensin 1)	1.09	active
26	MYH11 (myosin heavy chain 11)	1.1	active
27	DNAJB11 (DnaJ heat shock protein family (Hsp40) member B11)	0.336	inactive
28	AOPEP (aminopeptidase O (putative))	1.22	active
29	RAB12 (RAB12, member RAS oncogene family)	0.801	inactive
30	TRMT10B (tRNA methyltransferase 10B)	-0.619	inactive
31	OR11H4 (olfactory receptor family 11 subfamily H member 4)	-0.143	inactive
32	MRPS18B (mitochondrial ribosomal protein S18B)	1.28	active
33	SLC30A2	0.834	inactive
34	MTMR11 (myotubularin related protein 11)	-0.28	inactive
35	POU4F2 (POU class 4 homeobox 2)	-1.23	active
36	TRMT61B (tRNA methyltransferase 61B)	-1.48	active
37	TLE5 (TLE family member 5, transcriptional modulator)	0.431	inactive
38	SNX6 (sorting nexin 6)	-0.889	inactive
39	EFHD1 (EF-hand domain family member D1)	-0.541	inactive
40	NDUFA8 (NADH:ubiquinone oxidoreductase subunit A8)	-2.04	active
41	PLIN2 (perilipin 2)	1.19	active
42	CEACAM3 (CEA cell adhesion molecule 3)	-1.34	active
43	CSRNP3 (cysteine and serine rich nuclear protein 3)	-0.779	inactive
44	MTAP (methylthioadenosine phosphorylase)	-1.54	active
45	MRPS35 (mitochondrial ribosomal protein S35)	0.618	inactive
46	KTN1 (kinectin 1)	-0.96	inactive
47	EML1 (EMAP like 1)	-0.211	inactive
48	CLDN9 (claudin 9)	-1.16	active
49	ELK4 (ETS transcription factor ELK4)	-2.23	active
50	TMEM41A (transmembrane protein 41A)	-0.815	inactive
51	SHMT1 (serine hydroxymethyltransferase 1)	-1.33	active
52	HCCS (holocytochrome c synthase)	1.36	active
53	COL13A1 (collagen type XIII alpha 1 chain)	-1.99	active
54	SNX5 (sorting nexin 5)	-2.54	active
55	LY6S-AS1 (LY6S antisense RNA 1)	-2.06	active
56	WDHD1 (WD repeat and HMG-box DNA binding protein 1)	-0.643	inactive
57	ADAM23 (ADAM metallopeptidase domain 23)	1.21	active
58	PATJ (PATJ crumbs cell polarity complex component)	0.174	inactive
59	ORC3 (origin recognition complex subunit 3)	-0.721	inactive
60	MOB1B (MOB kinase activator 1B)	-0.823	inactive
61	LSM12 (LSM12 homolog)	-0.979	inactive
62	SMC3 (structural maintenance of chromosomes 3)	0.0348	inactive
63	SNIP1 (Smad nuclear interacting protein 1)	-0.359	inactive
64	CTAGE6 (CTAGE family member 6)	-1.12	active
65	FRMD4A (FERM domain containing 4A)	0.919	inactive
66	APOC2 (apolipoprotein C2)	-1.79	active
67	ZNF560 (zinc finger protein 560)	0.531	inactive
68	USO1 (USO1 vesicle transport factor)	-0.589	inactive
69	SEMG2 (semenogelin 2)	-0.177	inactive
70	HPCAL4 (hippocalcin like 4)	-0.185	inactive
71	PAGE5 (PAGE family member 5)	-1.51	active
72	CNTN3 (contactin 3)	-1.14	active
73	MAT2B (methionine adenosyltransferase 2 non-catalytic beta subunit)	-2.02	active
74	MRPL55 (mitochondrial ribosomal protein L55)	-0.216	inactive
75	DRAXIN (dorsal inhibitory axon guidance protein)	1.28	active
76	BLOC1S2 (biogenesis of lysosomal organelles complex 1 subunit 2)	-0.0968	inactive
77	CPA5 (carboxypeptidase A5)	1.4	active
78	DHRS2 (dehydrogenase/reductase 2)	-0.851	inactive
79	LAPTM5 (lysosomal protein transmembrane 5)	-1.54	active
80	ZC3H15 (zinc finger CCCH-type containing 15)	0.611	inactive
81	CCZ1 (CCZ1 vacuolar protein trafficking and biogenesis associated)	0.265	inactive
82	SLCO4C1	-1.78	active
83	LGI3 (leucine rich repeat LGI family member 3)	1.25	active
84	RO60 (Ro60, Y RNA binding protein)	-1.92	active
85	TSPEAR (thrombospondin type laminin G domain and EAR repeats)	0.326	inactive
86	TBC1D14 (TBC1 domain family member 14)	-0.534	inactive
87	ZNF646 (zinc finger protein 646)	0.627	inactive
88	FCGR1A (Fc gamma receptor Ia)	-1.76	active
89	TIGD4 (tigger transposable element derived 4)	0.164	inactive
90	RAPGEFL1 (Rap guanine nucleotide exchange factor like 1)	0.12	inactive
91	GTPBP4 (GTP binding protein 4)	0.925	inactive
92	WDR35 (WD repeat domain 35)	-0.41	inactive
93	SIGLEC7 (sialic acid binding Ig like lectin 7)	0.392	inactive
94	FERMT2 (FERM domain containing kindlin 2)	0.202	inactive
95	PEBP4 (phosphatidylethanolamine binding protein 4)	0.499	inactive
96	PABIR2 (PABIR family member 2)	-1.67	active
97	VSX2 (visual system homeobox 2)	0.0671	inactive
98	BCL9L (BCL9 like)	1.7	active
99	TRAPPC5 (trafficking protein particle complex subunit 5)	-1.43	active
100	TMSB10 (thymosin beta 10)	-1.58	active
101	TMF1 (TATA element modulatory factor 1)	-0.538	inactive
102	MIS18A (MIS18 kinetochore protein A)	0.855	inactive
103	CCDC92 (coiled-coil domain containing 92)	1.38	active
104	NDFIP1 (Nedd4 family interacting protein 1)	-1.08	active
105	CD1A (CD1a molecule)	-0.109	inactive
106	SPO11 (SPO11 initiator of meiotic double strand breaks)	-0.91	inactive
107	VCX3B (variable charge X-linked 3B)	-1.78	active
108	IFI27L1 (interferon alpha inducible protein 27 like 1)	-1.29	active
109	OR10H3 (olfactory receptor family 10 subfamily H member 3)	-0.586	inactive
110	PIGF (phosphatidylinositol glycan anchor biosynthesis class F)	-1.9	active

Ordered by “z-score vs non-targeting control” (highest first): some entries from above.
gene knocked down	z-score vs non-targeting control	Call
AGMAT (agmatinase (putative))	1.54	active
COX4I1 (cytochrome c oxidase subunit 4I1)	1.5	active
LOXL3 (lysyl oxidase like 3)	1.28	active
RASAL2 (RAS protein activator like 2)	0.619	inactive
CKAP2 (cytoskeleton associated protein 2)	0.565	inactive
NSG1 (neuronal vesicle trafficking associated 1)	0.315	inactive
LRRFIP1 (LRR binding FLII interacting protein 1)	-0.201	inactive
COL11A1 (collagen type XI alpha 1 chain)	-0.264	inactive
IAPP (islet amyloid polypeptide)	-0.51	inactive
CTNND2 (catenin delta 2)	-0.707	inactive
ZNF443 (zinc finger protein 443)	-0.795	inactive
SPRED3 (sprouty related EVH1 domain containing 3)	-1.3	active
POLD3 (DNA polymerase delta 3, accessory subunit)	-1.46	active
GTSF1L (gametocyte specific factor 1 like)	-1.69	active
ERVW-1 (endogenous retrovirus group W member 1, envelope)	-1.78	active
TFDP1 (transcription factor Dp-1)	-1.9	active
GLIS3 (GLIS family zinc finger 3)	-1.93	active
